Pooled drug test results. Numbers come from NIAID ChemDB, via PubChem.

Common to all: growth or infection tests; organism: HIV-1; cells: C8166; measure: EC50

a–b is a range or a potency band. ECn is the concentration giving n% inhibition of infection, replication or growth. Rows are shuffled and stem from different studies. An empty or dashed field is not shown.

SMILES | strain or isolate | mutations | read by | result
CCN1c2ncc(CCOc3ccc(-c4cc(C(=O)O)c[n+]([O-])c4)cc3C)cc2C(=O)N(C)c2cccnc21 | IIIB | - | p24 | >0.05 µM
CC(=O)OCC1=C[C@H]2[C@@H]3C(C)(C)[C@]3(OC(C)=O)[C@H](OC(=O)CCc3ccccc3)[C@@H](C)[C@]2(O)[C@@H]2C=C(C)C(=O)[C@@]2(O)C1 | IIIB | - | p24 / ELISA | 0.2087 µM
CCCC(C(=O)O)c1c(C)nc2ccc(Cl)cc2c1-c1ccc(F)c(Cl)c1 | - | - | luciferase / reporter gene | <20 µM
CCN1c2ncc(CCOc3ccc(NC(=O)c4ccccc4C(=O)O)cc3C)cc2C(=O)N(C)c2cccnc21 | IIIB | - | p24 | <0.01 µM
COC(C(=O)O)c1c(C)nc2ccc(Cl)cc2c1-c1ccc(Cl)cc1 | - | - | luciferase / reporter gene | <20 µM
CC(=O)O[C@@]12[C@H](OC(=O)/C=C/c3ccc(Br)cc3)[C@@H](C)[C@@]3(O)[C@@H](C=C(CO)C[C@]4(O)C(=O)C(C)=C[C@@H]34)[C@@H]1C2(C)C | IIIB | - | p24 / ELISA | 0.0188 µM
CCOc1ccc(-c2c(C(OC(C)C)C(=O)O)c(C)nc3ccc(Cl)cc23)cc1 | - | - | luciferase / reporter gene | <20 µM
CCN1c2ncc(CCOc3ccc(Nc4nc(C(=O)O)cs4)cc3C)cc2C(=O)N(C)c2cccnc21 | - | RT-K103N Y181C | p24 | 0.01–0.05 µM
CCCCCCCCC(=O)O[C@@]12[C@H](OC(=O)/C=C/c3ccc(Br)cc3)[C@@H](C)[C@@]3(O)[C@@H](C=C(CO)C[C@]4(O)C(=O)C(C)=C[C@@H]34)[C@@H]1C2(C)C | IIIB | - | p24 / ELISA | 0.0038 µM
CCCCOC(C(=O)O)c1c(C)nc2ccc(Br)cc2c1-c1ccc(Cl)cc1 | - | - | luciferase / reporter gene | <20 µM
CCN1c2ncc(CCOc3ccc(-c4ccc(F)c(C(=O)O)c4)cc3)cc2C(=O)N(C)c2cccnc21 | IIIB | - | p24 | <0.01 µM
CC(C)OC(=O)OCOP(=O)(CO[C@H](C)Cn1cnc2c(N)ncnc21)OCOC(=O)OC(C)C | - | Y181C | p24 / ELISA | 0.05662 µM
COc1ccc(-c2c(C(OC(C)C)C(=O)O)c(C)nc3ccc(Cl)cc23)c(F)c1 | - | - | luciferase / reporter gene | <20 µM
C=C(C)[C@]1(O)C[C@@H](C)[C@@]2(O)[C@H]([C@H]1OC(=O)/C=C/C=C/CCCCC)[C@@H]1O[C@]1(CO)[C@@H](O)[C@]1(O)C(=O)C(C)=C[C@H]12 | - | - | p24 / ELISA / antigen | 0.05901 µM
CC/C=C\C/C=C\C/C=C\C/C=C\C/C=C\CCCC(=O)OCC1=C[C@H]2[C@@H]3C(C)(C)[C@]3(OC(=O)CCC/C=C\C/C=C\C/C=C\C/C=C\C/C=C\CC)[C@H](O)[C@@H](C)[C@]2(O)[C@@H]2C=C(C)C(=O)[C@@]2(O)C1 | IIIB | - | p24 / ELISA | 12.74 µM
CCOc1ccc(-c2c(C(OC(C)C)C(=O)O)c(C)nc3ccc(Cl)cc23)cc1F | - | - | luciferase / reporter gene | <20 µM
CCN1c2ncc(CCOc3ccc(-c4cccc(CC(=O)O)c4)cc3C)cc2C(=O)N(C)c2cccnc21 | IIIB | - | p24 | <0.01 µM
CCCCCCCCC(=O)O[C@@]12[C@H](OC(=O)CCCCCC3SCC4NC(=O)NC43)[C@@H](C)[C@@]3(O)[C@@H](C=C(CO)C[C@]4(O)C(=O)C(C)=C[C@@H]34)[C@@H]1C2(C)C | IIIB | - | p24 / ELISA | 0.3019 µM

For reference, 2 entries again:

SMILES,strain or isolate,mutations,read by,result
CCN1c2ncc(CCOc3ccc(-c4cc(C(=O)O)c[n+]([O-])c4)cc3C)cc2C(=O)N(C)c2cccnc21,IIIB,-,p24,>0.05 µM
CC/C=C\C/C=C\C/C=C\C/C=C\C/C=C\CCCC(=O)OCC1=C[C@H]2[C@@H]3C(C)(C)[C@]3(OC(=O)CCC/C=C\C/C=C\C/C=C\C/C=C\C/C=C\CC)[C@H](O)[C@@H](C)[C@]2(O)[C@@H]2C=C(C)C(=O)[C@@]2(O)C1,IIIB,-,p24 / ELISA,12.74 µM